Assay results reported in PMC6114103, “17-DMAG inhibits the multiplication of several Babesia species and Theileria equi on in vitro cultures, and Babesia microti in mice” (International Journal for Parasitology: Drugs and Drug …, 2018).

Legend:
Assay in all cases: in vitro multiplication inhibition assay (SYBR Green I fluorescence, 96 h), single drugs and two-drug combinations
[1] = tested on: B. caballi (USDA strain); assay type: cell-based, Babesia caballi
Method: (§1) Babesia parasite cultures were maintained using a microaerophilic stationary-phase culture system ([Levy and Ristic, 1980]; [Avarzed et al., 1997]; [Igarashi et al., 1998]). Briefly, bovine Babesia parasites were grown in bovine red blood cells (RBC) in the specific complete medium for each species. The medium for B. bovis (Texas strain) contained GIT medium supplemented with 10% bovine serum, while the medium for B. bigemina (Argentina strain) and B. divergens (Germany strain) was Medium 199 and RPMI 1640 medium, respectively, supplemented with 40% bovine serum ([Rizk et al., 2016]). B. caballi (USDA strain) was grown using equine RBC in GIT medium supplemented with 10% equine serum. […]
(§2) The assays were conducted in accordance with the protocol described previously with modification ([Guswanto et al., 2014]). […] After incubation for 6 h, fluorescence values were measured using a fluorescence spectrophotometer (Fluoroskan Ascent, Thermo Fisher Scientific, USA) with the excitation and emission wavelength at 485 nm and 518 nm, respectively. The fluorescence data were subtracted from the negative control and used to calculate the IC50.
(§3) The IC50 of 17-DMAG, DA, and AV was calculated from the percentage of inhibition on the in vitro multiplication of all tested species using non-linear regression (curve fit), available in GraphPad Prism (GraphPad Software Inc., USA). […]

[2] = tested on: B. bigemina (Argentina strain); assay type: cell-based, Babesia bigemina
Method: as §1, §2, §3

[3] = tested on: B. divergens (Germany strain); assay type: cell-based, Babesia divergens
Method: as §1, §2, §3

[4] = tested on: T. equi (USDA strain); assay type: cell-based, Theileria equi
Method: as §1, §2, §3

[5] = tested on: B. bovis (Texas strain); assay type: cell-based, Babesia bovis
Method: as §1, §2, §3

CC(=O)NCC(=O)O.CC(=O)NCC(=O)O.N=C(N)c1ccc(N=NNc2ccc(C(=N)N)cc2)cc1 [DA, diminazene aceturate]
Selectivity index MDBK ([1]; ratio IC50 MDBK to IC50 B. caballi): >2985 | Selectivity index NIH/3T3 ([1]; ratio IC50 NIH/3T3 to IC50 B. caballi): >2985 | Selectivity index MDBK ([2]; ratio IC50 MDBK to IC50 B. bigemina): >22 | Selectivity index NIH/3T3 ([2]; ratio IC50 NIH/3T3 to IC50 B. bigemina): >22 | Selectivity index MDBK ([3]; ratio IC50 MDBK to IC50 B. divergens): >106 | Selectivity index NIH/3T3 ([3]; ratio IC50 NIH/3T3 to IC50 B. divergens): >106 | Selectivity index MDBK ([4]; ratio IC50 MDBK to IC50 T. equi): >668 | Selectivity index NIH/3T3 ([4]; ratio IC50 NIH/3T3 to IC50 T. equi): >668 | Selectivity index MDBK ([5]; ratio IC50 MDBK to IC50 B. bovis): >211 | Selectivity index NIH/3T3 ([5]; ratio IC50 NIH/3T3 to IC50 B. bovis): >211
